# Assay results published in patent publication US20020123480A1, “Methods and compositions utilizing 2'-5' oligoadenylates in the treatment of disorders of cell proliferation” (priority 2000, published 2002).
# Experiments:
# HeLa (HPV-18-positive) = experiment: Growth of HPV-positive HeLa cells, Coulter Counter cell count; type: cell-based, human
# EiL8 (HPV-16-positive) = experiment: Growth of HPV-positive EiL8 cells, Coulter Counter cell count; type: cell-based, human; conditions: for Ratio of IC50 at day 3 to IC50 at day 5: EiL8, Day 5; for Ratio of IC50 at day 3 to IC50 at day 7: EiL8, Day 7; for Ratio of IC50 at day 3 to IC50 at day 10: EiL8, Day 10
# Method: The cells used in the first study included CK-1 (HPV-33-positive), EiL8 (HPV-16-positive), SiHa (HPV-16-positive) and HeLa (HPV-18-positive) and control primary human cervical keratinocytes (PHK). The cells were cultured in growth medium at 37° C., in 5% CO2. For these experiments, the cells were seeded in 96-well microtiter plates and after 24 hours of growth, serial dilutions of the test compounds were added. The cells were not fed after addition of the compounds. After three, five, seven and ten days, the cells were harvested by trypsinization and counted with a Coulter Counter. Duplicate wells were analyzed for each dilution and the results averaged. The number of cells recovered at each dilution was compared to the number of cells in untreated control wells and the concentration of test compound required to reduce cell growth by 50 percent (IC50) was determined.
# CK-1 (HPV-33-positive) = type: cell-based; conditions: for Ratio of IC50 at day 3 to IC50 at day 5: CK-1, Day 5; for Ratio of IC50 at day 3 to IC50 at day 7: CK-1, Day 7; for Ratio of IC50 at day 3 to IC50 at day 10: CK-1, Day 10
# SiHa (HPV-16-positive) = experiment: Growth of HPV-positive SiHa cells, Coulter Counter cell count; type: cell-based, human
# [1] = tested on: primary human cervical keratinocytes (PHK); experiment: Growth of control primary human cervical keratinocytes, Coulter Counter cell count; type: cell-based
Compound,Ratio of IC50 at day 3 to IC50 at day 5 (HeLa (HPV-18-positive)),Ratio of IC50 at day 3 to IC50 at day 7 (HeLa (HPV-18-positive)),Ratio of IC50 at day 3 to IC50 at day 10 (HeLa (HPV-18-positive)),Ratio of IC50 at day 3 to IC50 at day 5 (EiL8 (HPV-16-positive)),Ratio of IC50 at day 3 to IC50 at day 7 (EiL8 (HPV-16-positive)),Ratio of IC50 at day 3 to IC50 at day 10 (EiL8 (HPV-16-positive)),Ratio of IC50 at day 3 to IC50 at day 5 (CK-1 (HPV-33-positive)),Ratio of IC50 at day 3 to IC50 at day 7 (CK-1 (HPV-33-positive)),Ratio of IC50 at day 3 to IC50 at day 10 (CK-1 (HPV-33-positive)),Ratio of IC50 at day 3 to IC50 at day 5 (SiHa (HPV-16-positive)),Ratio of IC50 at day 3 to IC50 at day 7 (SiHa (HPV-16-positive)),Ratio of IC50 at day 3 to IC50 at day 10 (SiHa (HPV-16-positive)),Ratio of IC50 at day 3 to IC50 at day 5 ([1]; Day 5),Ratio of IC50 at day 3 to IC50 at day 7 ([1]; Day 7),Ratio of IC50 at day 3 to IC50 at day 10 ([1]; Day 10)
"2′,3′-cyclophosphateadenylyl(2′,5′)adenylyl-(2′,5′)adenosine [Cmpd. I]",1.1,0.7,0.4,0.8,0.5,0.3,2.2,1.0,0.3,1.4,1.1,0.8,–,–,–
"Nc1ccn(C[C@@H](CO)OCP(=O)(O)O)c(=O)n1 [HPMPC, 3-hydroxy-2-phosphonylmethoxy-propyl cytosine, reference compound]",6.6,9.5,7.9,4.9,9.3,11,29,64,27,21,38,45,1.4,1.5,2.7
